A mixed list of measured activities; the numbers were collected in NIAID ChemDB.

All rows: whole-cell or culture tests; agent: Candida albicans; endpoint: MIC

Lines come from different laboratories, so protocols vary.

compound | strain | value
COc1ccc(C(=O)/C=C/c2ccc3ccccc3c2)c(OC)c1 | ATCC 10231 | >50 µg/mL
COc1cc(O)c2c(c1)C(=O)c1c(cc3c(c1O)-c1c(cc(C)c(C(=O)N[C@H](CO)C(=O)O)c1O)[C@H](O[C@@H]1O[C@H](C)[C@H](O)[C@H](O)[C@H]1O)[C@H]3O)C2=O | Juntendo 83-2-14 | 1.6 µg/mL
N#CC(C#N)C(CC(=O)c1ccccc1)c1ccc2ccccc2c1 | ATCC 10231 | >50 µg/mL
CCN[C@H]1CCN(c2c(F)cn3c(=O)c(C(=O)O)cc(C4CC4)c3c2C)C1 | CCH442 | 0.02 µg/mL
CN(C/C=C/C#CC(C)(C)C)Cc1cccc2ccccc12 | YAG237 (genotype CNB1-1/CNB1) | >12.5 µg/mL
COc1ccc(C(=O)CC(c2ccc3ccccc3c2)C(C#N)C#N)cc1OC | ATCC 10231 | >50 µg/mL
CN1CCC2=C(CCCC2CCc2ccc(Cl)cc2Cl)C1 | C316 | 16 µg/mL
C[C@@H](c1nc(-c2ccc(C#N)cc2)cs1)[C@](O)(Cn1cnnc1)c1ccc(F)cc1F | Isogenic isolate 2 MDR1 (12X) | 0.004 µg/mL
CCCCNC(=O)c1cc(C(F)(F)F)ccc1SSc1ccc(C(F)(F)F)cc1C(=O)NCCCC | ATCC 2091 | 40 µg/mL
O=C1C(Sc2ccccc2F)=CC(=O)c2c(O)cccc21 | - | 2 µg/mL
Clc1cccc(Cl)c1CCC1CCCc2cnccc21 | C316 | >125 µg/mL
COc1ccc2ccc(=O)oc2c1 | ATCC 14053 | 500 µg/mL
COc1cccc2c1C(=O)C=C(Sc1ccc(C)cc1)C2=O | - | 32 µg/mL
CC[C@H]1OC(=O)C=C2[C@@]13O[C@@H]3C1OC(=O)[C@@]3(C)CCC[C@@]2(C)[C@@H]13 | 1463D | 16 µg/mL
CCC[C@H](N)C1CCN(c2c(F)cn3c(=O)c(C(=O)O)cc(C4CC4)c3c2C)C1 | CCH442 | 50 µg/mL
CN1CCC2=C(CCCC2CCc2c(Cl)cccc2Cl)C1 | C316 | 16 µg/mL
Cc1c(N2CC[C@@H]([C@@H]3CCCN3)C2)c(F)cn2c(=O)c(C(=O)O)cc(C3CC3)c12 | CCH442 | >100 µg/mL
O=C1C=C(Sc2ccc(Cl)cc2)C(=O)c2c(O)cccc21 | - | 4 µg/mL
C[C@@]12CCC[C@]3(C)C4=CC(=O)OC(O)[C@]45O[C@@H]5C(OC1=O)[C@@H]23 | ATCC 90029 | >64 µg/mL
CC1=C(N2CCC3C(N)CCCC3C2)C(F)=CN2C(=O)C(C(=O)O)=CC(C3CC3)C12 | CCH442 | <100 µg/mL
CC(=O)Oc1ccc2oc(=O)ccc2c1 | ATCC 14053 | 500 µg/mL
Cc1ccc(SC2=CC(=O)c3cccc(O)c3C2=O)cc1 | - | 4 µg/mL
Cc1cnccc1CCCc1ccccc1 | 2381E | 16 µg/mL
C[C@H]1[C@H](O)[C@@H](C)/C=C/C=C/C=C/C=C/C=C/C=C/C=C/[C@H](O[C@@H]2O[C@H](C)[C@@H](O)[C@H](N)[C@@H]2O)C[C@@H]2O[C@](O)(C[C@@H](O)C[C@@H](O)CC[C@H](O)[C@@H](O)C[C@@H](O)CC(=O)O[C@H]1C)C[C@H](O)[C@H]2C(=O)O | SKF | 0.03 µg/mL
CN1CCC2=C(CCCC2(CCc2ccc(Br)cc2)CCc2ccc(Br)cc2)C1 | C316 | 125 µg/mL
CC(C)=CCC/C(C)=C/CC/C(C)=C/CC[C@@]1(C)[C@H](CCCO)/C(=C(/C)C=O)CC[C@]1(C)O | SR75 | >50 µg/mL
COc1c2ccoc2cc2oc(=O)ccc12 | ATCC 14053 | 250 µg/mL
CCCCn1sc2cc(C(F)(F)F)ccc2c1=O | ATCC 2091 | 7.5 µg/mL
Cc1c(N2CCNCC2)c(F)cn2c(=O)c(C(=O)O)cc(C3CC3)c12 | CCH442 | >100 µg/mL
C=C(Cl)/C=C/[C@H](O)CC(=C)C[C@H]1OC2[C@@H](O)[C@]3(O)C[C@@H](O)[C@H](C)[C@H](CCC/C=C\[C@@H]4C[C@@H](O)C[C@]5(C[C@H](OC)CC(CC(=O)[C@@H](C)[C@H](OC(C)=O)[C@@H](C)C(=C)C[C@@H]6C[C@@](C)(O)C[C@]7(C[C@H](OC(C)=O)CC(CC(=O)O[C@@H]([C@@H]1O)[C@H]2C)O7)O6)O5)O4)O3 | ATCC 32354 | 3.12 µg/mL
CN1CCC2=C(CCCC2Cc2ccccc2)C1 | C316 | 31 µg/mL
CC1=C(N2CCC(CNCCF)C2)C(F)=CN2C(=O)C(C(=O)O)=CC(C3CC3)C12 | CCH442 | >100 µg/mL
COCOCC1CCCN(c2c(F)cn3c(=O)c(C(=O)O)cc(C4CC4)c3c2C)C1.Cl | CCH442 | >100 µg/mL
COc1cc2cc(/C=C/C(=O)c3ccc(Cl)cc3)c(Cl)nc2cc1OC | ATCC 10231 | >50 µg/mL
CCCCNC(=O)c1cccc(F)c1SSc1c(F)cccc1C(=O)NCCCC | ATCC 2091 | 20 µg/mL
Cc1c(N2CCC(c3ccccn3)C2)c(F)cn2c(=O)c(C(=O)O)cc(C3CC3)c12.Cl | CCH442 | >100 µg/mL
COc1ccc(C(=O)CC(c2ccc3ccccc3c2)C(C#N)C#N)c(OC)c1 | ATCC 10231 | >50 µg/mL
Cc1c(N2C[C@@H]3C[C@H]2CN3)c(F)cn2c(=O)c(C(=O)O)cc(C3CC3)c12 | CCH442 | >100 µg/mL
COc1cccc2c1C(=O)C=CC2=O | - | 64 µg/mL
CC(CCc1ccccc1)c1ccncc1 | C316 | 31 µg/mL
CC1=C(N2C[C@H](O)C[C@@H]2CN)C(F)=CN2C(=O)C(C(=O)O)=CC(C3CC3)C12 | CCH442 | >100 µg/mL
COc1cc(OC)cc(N2C3CCC2CC(c2cnc(N)nc2N)C3)c1 | YEM15 (CDR1CDR2UP) | >64 µg/mL
CCCCNC(=O)c1c(SSc2cccc(C(F)(F)F)c2C(=O)NCCCC)cccc1C(F)(F)F | ATCC 2091 | 30 µg/mL
C[C@H](CCC(=O)NCCNCCNC(=O)CC[C@@H](C)[C@H]1CCC2C3CCC4C[C@H](O)CC[C@]4(C)C3C[C@H](C)[C@@]21O)[C@H]1CCC2C3CCC4C[C@H](O)CC[C@]4(C)C3C[C@H](C)[C@@]21O | Isolate 5 | 0.018 µM
Cc1c(N2C[C@@H](C)N[C@@H](C)C2)c(F)cn2c(=O)c(C(=O)O)cc(C3CC3)c12.Cl | CCH442 | >100 µg/mL
O=C1C(Sc2ccc(F)cc2)=C(Sc2ccc(F)cc2)C(=O)c2c(O)cccc21 | - | 2 µg/mL
COc1cc(Cc2cnc(N)nc2N)cc(OC)c1OCCCNc1ccc(S(=O)(=O)c2ccc(N)cc2)cc1 | YEM14 (WT) | >64 µg/mL
CC1=C(N2CCC(NCCF)C2)C(F)=CN2C(=O)C(C(=O)O)=CC(C3CC3)C12 | CCH442 | 100 µg/mL
COc1cc2ccc(=O)oc2c(O)c1O | ATCC 14053 | 500 µg/mL
Cc1c(N2CCN(c3ccccn3)CC2)c(F)cn2c(=O)c(C(=O)O)cc(C3CC3)c12 | CCH442 | >100 µg/mL
c1ccc(CC2CCCc3cnccc32)cc1 | C316 | 16 µg/mL
Cc1c(N2CCC[C@H](N)C2)c(F)cn2c(=O)c(C(=O)O)cc(C3CC3)c12 | CCH442 | >100 µg/mL
C[C@@H]1[C@H](O)[C@@H](C)/C=C/C=C/CC/C=C/C=C/C=C/C=C/C(O[C@H]2O[C@H](C)[C@@H](O)[C@H](N)[C@@H]2O)CC2O[C@](O)(CC(O)C(O)CCC(O)CC(O)CC(O)CC(=O)O[C@H]1C)CC(O)C2C(=O)O | MTCC 854 | 150 µg/mL

The last 6 rows once more:

CC1=C(N2CCC(NCCF)C2)C(F)=CN2C(=O)C(C(=O)O)=CC(C3CC3)C12 ; strain: CCH442 ; value: 100 µg/mL
COc1cc2ccc(=O)oc2c(O)c1O ; strain: ATCC 14053 ; value: 500 µg/mL
Cc1c(N2CCN(c3ccccn3)CC2)c(F)cn2c(=O)c(C(=O)O)cc(C3CC3)c12 ; strain: CCH442 ; value: >100 µg/mL
c1ccc(CC2CCCc3cnccc32)cc1 ; strain: C316 ; value: 16 µg/mL
Cc1c(N2CCC[C@H](N)C2)c(F)cn2c(=O)c(C(=O)O)cc(C3CC3)c12 ; strain: CCH442 ; value: >100 µg/mL
C[C@@H]1[C@H](O)[C@@H](C)/C=C/C=C/CC/C=C/C=C/C=C/C=C/C(O[C@H]2O[C@H](C)[C@@H](O)[C@H](N)[C@@H]2O)CC2O[C@](O)(CC(O)C(O)CCC(O)CC(O)CC(O)CC(=O)O[C@H]1C)CC(O)C2C(=O)O ; strain: MTCC 854 ; value: 150 µg/mL

An empty or dashed field is not shown.